Tests used:
[1] = test system: HCV genotype 1b Con1 replicon cells; assay: Isolation of resistant replicons, genotype 1b; format: cell-based, Hepatitis C virus
[2] = test system: HCV genotype 2a JFH1 replicon cells; assay: Isolation of resistant replicons, genotype 2a; format: cell-based, Hepatitis C virus

**Q.** Which “frequency of NS5A mutation M202L in resistant clones” value ([1]; 0.2 nM DBPR110 selection) does the source give for O=C(N[C@@H](C(=O)N1CCC[C@H]1c1ncc(-c2ccc(-c3ccc(-c4cnc([C@@H]5CCCN5C(=O)[C@H](NC(=O)C5CC5)c5ccccc5)s4)cc3)cc2)s1)c1ccccc1)C1CC1 [DBPR110] here?
**A.** The value was 47%.

**Q.** And the “frequency of NS5A mutation M265V in resistant clones” value ([1]; 0.2 nM DBPR110 selection)?
**A.** The value was 40%.

**Q.** What about the “frequency of NS5A mutation P58L/T in resistant clones” value ([1]; 0.2 nM DBPR110 selection) of the same compound?
**A.** The value was 20%.

**Q.** And the “frequency of NS5A mutation V153M in resistant clones” value ([1]; 0.2 nM DBPR110 selection)?
**A.** Its value is 53%.

**Q.** What about the “frequency of NS5A mutation Y93N/H in resistant clones” value ([1]; 0.2 nM DBPR110 selection) of the same compound?
**A.** The value was 73%.

**Q.** And the “cDNA clones containing Y93N, V153M, M202L, and M265V” value ([1]; 200 nM DBPR110 selection)?
**A.** Its value is 100%.

**Q.** And the “frequency of NS5A mutation P58L in resistant clones” value ([2]; 60 nM DBPR110 selection)?
**A.** The value was 50%.

**Q.** And the “frequency of NS5A mutation T24A in resistant clones” value ([2]; 60 nM DBPR110 selection)?
**A.** Its value is 50%.

**Q.** And the “cDNA clones containing only the mutation Y93H” value ([2]; 1 μM DBPR110 selection)?
**A.** The value was 100%.

Source: patent publication US20140127158A1, “COMBINATION THERAPY FOR HEPATITIS C VIRUS INFECTION” (National Health Research Institute, priority 2012, published 2014)
